According to the supplement of paper PMC10933113:
± gives the uncertainty stated by the source. This is a selection; strong and weak results do not stand in their true shares.

Tested on: THP-1
Assay: CD54 surface expression induction over DMSO control (% over DMSO); higher = stronger dendritic cell activation
Conditions: 10 µM; exposure time: 24 h
Procedure: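 hCLAT-like CD54 and CD86 surface expression on THP1 cells after 24 h exposure at a single concentration (highest non-cytotoxic concentration, or 100-200 µM if not cytotoxic). Flow cytometry (iQue) was run on 5,000 live cells.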

SMILES | CD54 surface expression induction
C[CH2][Sn]([Br])([CH2]C)[CH2]C [Triethyltin bromide] | 5.45 ± 3
